Assay results taken from patent US5891924A, “Curcumin (diferuloylmethane) inhibition of NFκB activation” (Research Development Foundation, priority 1996, dated 1999).

System: NF-κB
Assay: Effect of reducing agents DTT and DMP on inhibition of TNF-induced NF-κB activation, EMSA
Format: cell-based, human
Details: DTT 100 μM or DMP 100 μM, curcumin 50 μM or PAO 2.4 μM, 60 minutes, then 0.1 nM TNF 30 minutes, FIG. 5

O=[As]c1ccccc1 (stereo not shown)
reversal by DTT and DMP of the inhibition of TNF-induced NF-κB activation: completely reversed
